The results in this text go back to patent US7425576B2, “Compounds as inhibitors of hepatitis C virus NS3 serine protease” (Schering Corporation, priority 2004, dated 2008).

By UniProt entry, the sequences of proteins in these tests, tags left out. Residues count along the entry.
UniProt P27958, 1027-1657 limits assumed: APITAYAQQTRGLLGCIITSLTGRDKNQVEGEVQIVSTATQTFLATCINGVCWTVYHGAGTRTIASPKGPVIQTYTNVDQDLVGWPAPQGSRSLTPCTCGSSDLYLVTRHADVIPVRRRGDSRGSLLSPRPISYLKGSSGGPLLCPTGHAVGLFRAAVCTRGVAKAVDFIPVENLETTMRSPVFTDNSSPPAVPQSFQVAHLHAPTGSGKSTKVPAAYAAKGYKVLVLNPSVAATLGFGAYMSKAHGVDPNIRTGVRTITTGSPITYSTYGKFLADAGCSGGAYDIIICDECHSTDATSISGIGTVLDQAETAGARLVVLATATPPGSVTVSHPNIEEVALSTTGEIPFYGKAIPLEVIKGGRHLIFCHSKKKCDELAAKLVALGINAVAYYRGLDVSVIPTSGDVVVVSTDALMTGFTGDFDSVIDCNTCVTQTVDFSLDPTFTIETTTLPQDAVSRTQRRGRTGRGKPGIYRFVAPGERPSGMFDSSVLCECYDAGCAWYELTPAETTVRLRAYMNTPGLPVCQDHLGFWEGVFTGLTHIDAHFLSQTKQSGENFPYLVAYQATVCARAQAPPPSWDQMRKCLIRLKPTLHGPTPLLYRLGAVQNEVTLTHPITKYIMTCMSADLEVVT
UniProt P27958, 1658-1711 partner limits assumed: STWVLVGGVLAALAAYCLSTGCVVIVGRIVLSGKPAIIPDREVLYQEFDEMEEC

Structures were worked out from names or drawings and are uncertain.

In this test the target is Recombinant heterodimeric HCV NS3/NS4A protease (strain 1a) (Hepatitis C virus genotype 1a, UniProt P27958). As to the kind of experiment: Spectrophotometric assay for HCV protease inhibitory activity (chromogenic ester substrates). From the text:
The present invention relates to novel HCV protease inhibitors. This utility can be manifested in their ability to inhibit the HCV NS2/NS4a serine protease.
Assay for HCV Protease Inhibitory Activity:
Spectrophotometric Assay: Spectrophotometric assay for the HCV serine protease can be performed on the inventive compounds by following the procedure described by R. Zhang et al, Analytical Biochemistry, 270 (1999) 268-275, the disclosure of which is incorporated herein by reference. The assay based on the proteolysis of chromogenic ester substrates is suitable for the continuous monitoring of HCV NS3 protease activity. […]
Enzyme Preparation: Recombinant heterodimeric HCV NS3/NS4A protease (strain 1a) is prepared by using the procedures published previously (D. L. Sali et al, Biochemistry, 37 (1998) 3392-3401). Protein concentrations are determined by the Biorad dye method using recombinant HCV protease standards previously quantified by amino acid analysis. […]
Protease Assay: HCV protease assays are performed at 30° C. using a 200 μl reaction mix in a 96-well microtiter plate. […] Proteolytic cleavage of the ester linkage between the Nva and the chromophore is monitored at the appropriate wavelength against a no enzyme blank as a control for non-enzymatic hydrolysis. […] Turnover numbers (kcat) are calculated assuming the enzyme is fully active. […]

The Ki is the equilibrium dissociation constant of an inhibitor or competing ligand from its target. `C#CCCC(NC(=O)[C@@H]1[C@@H]2[C@H](CN1C(=O)[C@@H](NC(=O)N[C@H](COC(=O)NCC(C)C)C(C)(C)C)C1(C)CCCCC1)C2(C)C)C(=O)C(=O)NCCC` (single isomer, unassigned): the Ki is below 75 nM (Table 1A, Ki* range class) and 27 nM (Table 6A, numeric Ki*).
